PubChem BioAssay AID1259414, Drosophila RNAi Screening Center – 2018
The screen tested about 24,000 reagents; shown is an unselected part of those with a known target gene and a result. In the full data, about 1,210 (5%) are marked active. 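Inactive calls also include excluded dsRNAs with several or no targets, genes unexpressed in JW18, and well A1, regardless of score.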 Reagents against one gene are numbered here. A plus sign joins genes that one reagent is predicted to hit.

Assay: 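Genome-wide screen for host control of endosymbiont load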 (primary screen)
Cell system: Drosophila JW18 cells infected with Wolbachia
Knock-down reagent: long dsRNA against Drosophila genes, 0.25 µg dsRNA per well of a 384-well plate
Timing: 5 days
Treatment: cells persistently infected with Wolbachia before knock-down; no added drug
Read-out: 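Automated imaging of bacterial rRNA staining divided by host cell count, reported as plate-normalised robust z-score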
Scale: Wolbachia per cell robust z: higher = more Wolbachia per host cell than the plate typical
Rule for the call: 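Active if absolute robust z reaches 1.5 in two or more of three replicates, leaving out multi- or no-target dsRNAs, genes unexpressed in JW18 and A1 wells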

After knock-down of Dh44-R1 (GeneID 36601) #1, the record shows Wolbachia per cell robust z, rep 1 = -0.814; Wolbachia per cell robust z, rep 2 = -1.75; Wolbachia per cell robust z, rep 3 = 0.377; inactive.
Dh44-R1 (GeneID 36601) #2 showed Wolbachia per cell robust z, rep 1 = 0.703; Wolbachia per cell robust z, rep 2 = 0.338; Wolbachia per cell robust z, rep 3 = 0.0498; inactive.
For mRpL9 (GeneID 41859) #1 the deposit lists Wolbachia per cell robust z, rep 1 = 0.281; Wolbachia per cell robust z, rep 2 = 0.747; Wolbachia per cell robust z, rep 3 = 0.677; inactive.
Depletion of mRpL9 (GeneID 41859) #2 came out at: Wolbachia per cell robust z, rep 1 = 0.75; Wolbachia per cell robust z, rep 2 = -4.97; Wolbachia per cell robust z, rep 3 = 0.118; inactive.
Against CG17361 (GeneID 39548), the values are Wolbachia per cell robust z, rep 1 = 0.236; Wolbachia per cell robust z, rep 2 = -1.09; Wolbachia per cell robust z, rep 3 = -16.1; inactive.
CG6791 (GeneID 41391) #1 showed Wolbachia per cell robust z, rep 1 = -0.547; Wolbachia per cell robust z, rep 2 = -0.443; Wolbachia per cell robust z, rep 3 = -5.85; inactive.
Depletion of CG6791 (GeneID 41391) #2 resulted in: Wolbachia per cell robust z, rep 1 = -0.0222; Wolbachia per cell robust z, rep 2 = -4.55; Wolbachia per cell robust z, rep 3 = -0.865; inactive.
Silencing of CG4577 (GeneID 33291) resulted in: Wolbachia per cell robust z, rep 1 = -8.58; Wolbachia per cell robust z, rep 2 = 0.15; Wolbachia per cell robust z, rep 3 = 0.136; inactive.
CG12926 (GeneID 35996) #1 scored Wolbachia per cell robust z, rep 1 = -0.0919; Wolbachia per cell robust z, rep 2 = -6.53; Wolbachia per cell robust z, rep 3 = 0.00529; inactive.
With knock-down of CG12926 (GeneID 35996) #2 the results were Wolbachia per cell robust z, rep 1 = -2.31; Wolbachia per cell robust z, rep 2 = -1.76; Wolbachia per cell robust z, rep 3 = -0.571; active.
Knock-down of Gr21a (GeneID 33251) #1 came out at: Wolbachia per cell robust z, rep 1 = 1.21; Wolbachia per cell robust z, rep 2 = -2.9; Wolbachia per cell robust z, rep 3 = 0.593; inactive.
Gr21a (GeneID 33251) #2 gave Wolbachia per cell robust z, rep 1 = -0.0695; Wolbachia per cell robust z, rep 2 = 0.674; Wolbachia per cell robust z, rep 3 = -0.0976; inactive.
After knock-down of CG33626 (GeneID 3772257) the results were Wolbachia per cell robust z, rep 1 = -2.18; Wolbachia per cell robust z, rep 2 = -0.835; Wolbachia per cell robust z, rep 3 = 0.321; inactive.
For gammaCOP (GeneID 43717) #1, the values are Wolbachia per cell robust z, rep 1 = 1.45; Wolbachia per cell robust z, rep 2 = 2.48; Wolbachia per cell robust z, rep 3 = 2.84; active.
After knock-down of gammaCOP (GeneID 43717) #2, the screen gave Wolbachia per cell robust z, rep 1 = 1.45; Wolbachia per cell robust z, rep 2 = 3.32; Wolbachia per cell robust z, rep 3 = 2.2; active.
After knock-down of RpL27A (GeneID 33654) #1, the screen gave Wolbachia per cell robust z, rep 1 = 2.5; Wolbachia per cell robust z, rep 2 = 4.69; Wolbachia per cell robust z, rep 3 = 4.76; active.
With knock-down of RpL27A (GeneID 33654) #2, the record shows Wolbachia per cell robust z, rep 1 = 1.63; Wolbachia per cell robust z, rep 2 = 2.44; Wolbachia per cell robust z, rep 3 = 2.39; active.
Knock-down of CG16799 (GeneID 37340) #1 came out at: Wolbachia per cell robust z, rep 1 = 0.887; Wolbachia per cell robust z, rep 2 = 0.632; Wolbachia per cell robust z, rep 3 = 0.779; inactive.
For CG16799 (GeneID 37340) #2, the values are Wolbachia per cell robust z, rep 1 = 0.681; Wolbachia per cell robust z, rep 2 = 0.143; Wolbachia per cell robust z, rep 3 = -1.34; inactive.
ND-24L (GeneID 39926) #1 showed Wolbachia per cell robust z, rep 1 = -0.133; Wolbachia per cell robust z, rep 2 = 0.245; Wolbachia per cell robust z, rep 3 = -0.419; inactive.
After knock-down of ND-24L (GeneID 39926) #2, the screen gave Wolbachia per cell robust z, rep 1 = -1.05; Wolbachia per cell robust z, rep 2 = -0.117; Wolbachia per cell robust z, rep 3 = -1.34; inactive.
CG2921 (GeneID 37515) #1 gave Wolbachia per cell robust z, rep 1 = -0.644; Wolbachia per cell robust z, rep 2 = -0.0324; Wolbachia per cell robust z, rep 3 = -0.85; inactive.
For CG2921 (GeneID 37515) #2, the values are Wolbachia per cell robust z, rep 1 = 0.921; Wolbachia per cell robust z, rep 2 = 0.922; Wolbachia per cell robust z, rep 3 = 0.00255; inactive.
Silencing of sud1 + PIG-S came out at: Wolbachia per cell robust z, rep 1 = 0.381; Wolbachia per cell robust z, rep 2 = -2.57; Wolbachia per cell robust z, rep 3 = 0.34; inactive.
For PXo (GeneID 38666) the deposit lists Wolbachia per cell robust z, rep 1 = 0.377; Wolbachia per cell robust z, rep 2 = 0.553; Wolbachia per cell robust z, rep 3 = -0.436; inactive.
After knock-down of BCAS2 (GeneID 43348) #1, the record shows Wolbachia per cell robust z, rep 1 = -0.431; Wolbachia per cell robust z, rep 2 = 0.0561; Wolbachia per cell robust z, rep 3 = -0.982; inactive.
BCAS2 (GeneID 43348) #2 gave Wolbachia per cell robust z, rep 1 = -0.611; Wolbachia per cell robust z, rep 2 = -0.0414; Wolbachia per cell robust z, rep 3 = -0.0483; inactive.
Against CG31729 (GeneID 34736) #1, the values are Wolbachia per cell robust z, rep 1 = 0.557; Wolbachia per cell robust z, rep 2 = 0.757; Wolbachia per cell robust z, rep 3 = 1.14; inactive.
For CG31729 (GeneID 34736) #2, the values are Wolbachia per cell robust z, rep 1 = -0.728; Wolbachia per cell robust z, rep 2 = 1.03; Wolbachia per cell robust z, rep 3 = 0.276; inactive.
Against CG31729 (GeneID 34736) #3, the entry reads Wolbachia per cell robust z, rep 1 = 0.146; Wolbachia per cell robust z, rep 2 = -0.128; Wolbachia per cell robust z, rep 3 = -2.32; inactive.

5 entries from above, arranged by “Wolbachia per cell robust z, rep 2”, descending.
RpL27A (GeneID 33654) #1: Wolbachia per cell robust z, rep 1 = 2.5; Wolbachia per cell robust z, rep 2 = 4.69; Wolbachia per cell robust z, rep 3 = 4.76; Outcome = active
gammaCOP (GeneID 43717) #2: Wolbachia per cell robust z, rep 1 = 1.45; Wolbachia per cell robust z, rep 2 = 3.32; Wolbachia per cell robust z, rep 3 = 2.2; Outcome = active
RpL27A (GeneID 33654) #2: Wolbachia per cell robust z, rep 1 = 1.63; Wolbachia per cell robust z, rep 2 = 2.44; Wolbachia per cell robust z, rep 3 = 2.39; Outcome = active
CG16799 (GeneID 37340) #1: Wolbachia per cell robust z, rep 1 = 0.887; Wolbachia per cell robust z, rep 2 = 0.632; Wolbachia per cell robust z, rep 3 = 0.779; Outcome = inactive
CG16799 (GeneID 37340) #2: Wolbachia per cell robust z, rep 1 = 0.681; Wolbachia per cell robust z, rep 2 = 0.143; Wolbachia per cell robust z, rep 3 = -1.34; Outcome = inactive
